# Human monoclonal antibodies against the spike receptor-binding domain (heavy:light variable regions). IC50 against pseudoviruses bearing the spike of naturally observed variants; lower = stronger; >10 µg/ml means not reached at the top dose. No active / inactive call. The stated detection limit is 0.0005 µg/ml; values near or below 0.001 µg/ml lie at the floor of the assay.
# B1: BD55-6429 (protein)
# chain 1: QVQLVESGGGVVQPGRSLRLSCAASGFTFSAYDIHWVRQAPGKGLEWVAVISYDGAIKFYADSVKGRFTISRDNSKNMLYLQMNSLRAEDTAMYYCAKEQTYDALTGLYYFDYWGQGTLVTVSS
# chain 2: DIQMTQSPSSLSASVGDRVTITCRASQSISRHLNWYQQKPGKAPKLLIYAASTLQSGVPSRFSGSGSGTDFTLTVSSLQPEDFATYYCQQSFSTPQITFGPGTKVDIK
# B2: BD55-6431 (protein)
# chain 1: QEQLVQSGGGVVQPGRSLTLSCSASGFSFSNYAMNWVRQAPGKGLEWVAMISYEGSKKFYADSVKGRFIISRDNSKSTLSLQMIGLRDEDSAVYYCAKEGYYESGSSGYRFDPWGPGSLVTVSS
# chain 2: DIQMTQSPSSLSASVGDRVTITCRASQSINTYLNWYQQKPGKAPKLLIHVASNLQNGVPSRFSGSGSGTEFTLTISSLQPEDLATYYCQQSHSIPRTFGQGTKVEI
# B3: BD55-6432 (protein)
# chain 1: QVQLVESGGGVVQPGRSLRLSCAASGFPFDNYAINWVRQAPGKGLEWVALISYDGSNKYYAESVKGRLTISRDNSKNLLYLEMNTLRAEDTAVYYCARGGLFGDFSSYHYYGLDAWGQGTTVTVSS
# chain 2: QSVLTQAPSASGTPGQRVTISCSGGGSNVGSNYVFWYQHLPGTAPKLLIFRNNQRPSGVPDRFSGSRSGTSASLAISGLRSEDEADYYCAAWDDSLRAWVFGGGTMLTVL
# B4: BD55-6433 (protein)
# chain 1: EVQLEQSGAELKKPGESLKISCKGSGYTFTNYWIAWVRQMPGKGLEYMGVIYAGDSDTRYSPSFQGQVTISADKSISTVYLHWSSLGASDSAMYYCARLGHGYSYGYIDYWGQGTLITVSS
# chain 2: DIVMTQSPDSLAVSLGERATINCKSSQSVLSTSINKNYLAWYQQKPSQPPKLLIYWASTREFGVPDRFSGSGSGTDFTLTISSLQAEDVAVYYCQQYYSTLWTFGQGTKVEIK
# B5: BD55-6445 (protein)
# chain 1: QEQLVESGGGLVKPGGSLRLSCAASGFTFSDYYMSWVRQAPGKGLEWVSYISRGVPYTNYADSVKGRFTISRDDAKNSLYLQMNNLRVEDTGVYYCARDRNWNYEDAFDIWGQGTMVTVSS
# chain 2: IQMTQSPSSLSASVGDRVTITCRASLSISSYVNWYQQKPGKAPKLLIYGASNLQSGVPSRFSGSGSGTDFTLTISSLQPEDFATYYCQQSYTTPLFTFGPGTKVDIK
# B6: BD55-6446 (protein)
# chain 1: QVQLVQSGAEVKKPGASVKVSCEASGYTFTDSFMHWVRQAPGQGLEWMAYIDPNEGVTNYAQKFQGRVTLTRDTSIRTAYMELSRLRSDDTAIYYCAREYYDFSTGYSRFDFWGRGTLVTVSS
# chain 2: DIQMTQSPSSLSASVGDRVTITCRASQSISNYLNWYQQTPGKAPTLLIYAASSLQSGVPSRFSGSGSGTDFTLTISSLQPEDFATYYCQQSYTSFPKTFGPGTKVYIK
# Biological target: SARS-CoV-2 Omicron BA.1 spike pseudovirus
# Assay: pseudovirus neutralization IC50; higher = weaker neutralization
# Description: (§1)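 Single-round VSV luciferase pseudovirus mixed with antibody dilutions for 1 h and put on Huh-7 cells for about a day; IC50 from the dose curve.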
row,Binder,pseudovirus neutralization IC50
1,B1,> 10 µg/mL
2,B2,> 10 µg/mL
3,B3,> 10 µg/mL
4,B4,1.26 µg/mL
5,B5,> 10 µg/mL
6,B6,> 10 µg/mL

# Biological target: SARS-CoV-2 Omicron BA.2 spike pseudovirus
# Assay: as above
# Description: as §1
row,Binder,pseudovirus neutralization IC50
1,B1,> 10 µg/mL
2,B2,> 10 µg/mL
3,B3,> 10 µg/mL
4,B4,1.03 µg/mL
5,B5,> 10 µg/mL
6,B6,> 10 µg/mL

# Biological target: SARS-CoV-2 Omicron BA.2.75 spike pseudovirus
# Assay: as above
# Description: as §1
row,Binder,pseudovirus neutralization IC50
1,B1,> 10 µg/mL
2,B2,> 10 µg/mL
3,B3,> 10 µg/mL
4,B4,1.12 µg/mL
5,B5,> 10 µg/mL
6,B6,> 10 µg/mL

# Biological target: SARS-CoV-2 Omicron BA.5 spike pseudovirus
# Assay: as above
# Description: as §1
row,Binder,pseudovirus neutralization IC50
1,B1,> 10 µg/mL
2,B2,> 10 µg/mL
3,B3,> 10 µg/mL
4,B4,1.33 µg/mL
5,B5,> 10 µg/mL
6,B6,> 10 µg/mL

# Biological target: SARS-CoV-2 Omicron BQ.1.1 spike pseudovirus
# Assay: as above
# Description: as §1
row,Binder,pseudovirus neutralization IC50
1,B1,> 10 µg/mL
2,B2,> 10 µg/mL
3,B3,> 10 µg/mL
4,B4,> 10 µg/mL
5,B5,> 10 µg/mL
6,B6,> 10 µg/mL

# Biological target: SARS-CoV-2 Omicron XBB spike pseudovirus
# Assay: as above
# Description: as §1
row,Binder,pseudovirus neutralization IC50
1,B1,> 10 µg/mL
2,B2,> 10 µg/mL
3,B3,> 10 µg/mL
4,B4,6.37 µg/mL
5,B5,> 10 µg/mL
6,B6,> 10 µg/mL

# Biological target: SARS-CoV-2 early D614G spike pseudovirus
# Assay: as above
# Description: as §1
row,Binder,pseudovirus neutralization IC50
1,B1,> 10 µg/mL
2,B2,0.371 µg/mL
3,B3,> 10 µg/mL
4,B4,1.07 µg/mL
5,B5,> 10 µg/mL
6,B6,> 10 µg/mL
